Results of unrelated studies side by side (data: NIAID ChemDB).

All rows: tests in culture; agent: Varicella zoster virus; measure: EC50

a–b is a range or a potency band. ECn is the concentration giving n% inhibition of infection, replication or growth. Rows are shuffled and stem from different studies.

{"compound": "Cc1c(Br)cc(Br)c2ncc(CSC(C)c3cccs3)n12", "strain": "07/1 (TK-)", "cells": "HEL", "read by": "plaque count", "result": ">2 µg/mL"}
{"compound": "Nc1nc2c(ncn2[C@@H]2C=C[C@H](CO)CC2)c(=O)[nH]1", "cells": "VERO", "read by": "cytopathic effect", "result": "1–10 µM"}
{"compound": "O=c1[nH]c(=O)n([C@H]2C[C@H](O)[C@@H](CO)O2)cc1/C=C/Br", "strain": "OKA", "cells": "CCRF-HSV-B", "read by": "plaque count", "result": "0.00083 µg/mL"}
{"compound": "CCc1cn([C@@H]2O[C@H](CO)[C@@H](O)[C@@H]2F)c(=O)[nH]c1=O", "strain": "OKA", "cells": "CCRF-HSB-2", "read by": "plaque count", "result": "1.09 µM"}
{"compound": "Nc1nc2c(ncn2[C@H]2C=C[C@@H](CO)CC2)c(=O)[nH]1", "cells": "VERO", "read by": "cytopathic effect", "result": "1–10 µM"}
{"compound": "Cc1c(Br)cc(Br)c2ncc(CSCc3ccccc3Cl)n12", "strain": "YS/R (TK-)", "cells": "HEL", "read by": "plaque count", "result": ">5 µg/mL"}
{"compound": "c1ccn2cc(-c3ccoc3)cc2c1", "strain": "G-31", "cells": "MRC-5", "read by": "plaque count", "result": ">40 µM"}
{"compound": "Cc1cn(C(CCO)OCCO)c(=O)[nH]c1=O", "cells": "HFF", "read by": "cytopathic effect", "result": "127 µM"}
{"compound": "O=c1[nH]c(=O)n([C@@H]2O[C@H](CO)[C@@H](O)[C@@H]2O)cc1I", "strain": "OKA", "cells": "CCRF-HSB-2", "read by": "plaque count", "result": "70 µM"}
{"compound": "Nc1nc2c(ncn2COC(CO)CO)c(=O)[nH]1", "cells": "VERO", "read by": "cytopathic effect", "result": "10–100 µM"}
{"compound": "O=C(O)P(=O)(O)O", "strain": "Clinical isolate VZV-26", "cells": "HEL", "read by": "cytopathic effect", "result": "85.5 µM"}
{"compound": "Nc1nc2c(ncn2[C@@H]2C=C[C@H](CO)[C@@H](O)C2)c(=O)[nH]1", "strain": "OKA", "cells": "E6SM", "read by": "cytopathic effect", "result": "0.64 µg/mL"}
{"compound": "Clc1ccc(-c2cc3ccccn3c2)c(Cl)c1", "strain": "G-31", "cells": "MRC-5", "read by": "plaque count", "result": ">40 µM"}
{"compound": "O=c1[nH]c(=O)n([C@@H]2O[C@H](CO)[C@@H](O)[C@@H]2O)cc1/C=C/Br", "strain": "YS-W1 H13", "cells": "HEL", "read by": "plaque count", "result": "0.0005 µg/mL"}
{"compound": "FC(F)(F)Oc1ccc(-c2cc3ccccn3c2)cc1", "strain": "G-31", "cells": "MRC-5", "read by": "plaque count", "result": "5 µM"}
{"compound": "Cc1c(Br)cc(Br)c2ncc(CSCc3ccc(Cl)cc3)n12", "strain": "YS (TK+)", "cells": "HEL", "read by": "plaque count", "result": "3.2 µg/mL"}
{"compound": "O=c1[nH]c(=O)n([C@@H]2O[C@H](CO)[C@@H](O)[C@@H]2O)cc1/C=C/Br", "strain": "Kawaguchi", "read by": "plaque count", "result": "0.00111 µg/mL"}
{"compound": "CC1(C)[C@H](CCO)C[C@@H]1n1cnc2c(=O)[nH]cnc21", "strain": "YS (TK+)", "read by": "plaque count", "result": ">50 µg/mL"}
{"compound": "Nc1ncnc2c1ncn2C[C@@H](CO)OCP(=O)(O)O", "strain": "Oka PMEA-resistant", "cells": "HEL", "read by": "cytopathic effect", "result": "0.083 µM"}
{"compound": "Nc1nc(Cl)c2ncn([C@@H](CCO)SCCO)c2n1", "cells": "HFF", "read by": "cytopathic effect", "result": "131 µM"}
{"compound": "CC(C)OC(=O)c1c(C(C)C)cc2ccccn12", "strain": "G-31", "cells": "MRC-5", "read by": "plaque count", "result": ">50 µM"}
{"compound": "O=c1[nH]c(=O)n([C@@H]2O[C@H](CO)[C@@H](O)[C@@H]2F)cc1I", "strain": "OKA", "cells": "CCRF-HSB-2", "read by": "plaque count", "result": "0.21 µM"}
{"compound": "O=C(NCc1ccc(Cl)cc1)c1c[nH]c2ccc(C#CCO)cc2c1=O", "strain": "COH", "read by": "plaque count", "result": "0.2 µM"}
{"compound": "CC1(C)[C@H](CCO)C[C@@H]1n1cnc2c(N)ncnc21", "strain": "07/1 (TK-)", "read by": "plaque count", "result": ">20 µg/mL"}
{"compound": "Nc1nc2c(ncn2[C@H]2C=C[C@@H](CO)[C@H](O)C2)c(=O)[nH]1", "strain": "YS", "cells": "E6SM", "read by": "cytopathic effect", "result": "1.2 µg/mL"}
{"compound": "Cc1c(Br)cc(Br)c2ncc(CSCc3cccc(C(F)(F)F)c3)n12", "strain": "YS (TK+)", "cells": "HEL", "read by": "plaque count", "result": ">5 µg/mL"}
{"compound": "O=C(O)CP(=O)(O)O", "strain": "Kawaguchi acyclovir-resistant mutant A6", "read by": "plaque count", "result": "1.56 µg/mL"}
{"compound": "O=c1[nH]c(=O)n([C@@H]2O[C@H](CO)[C@@H](O)[C@@H]2O)cc1/C=C/Br", "strain": "Oka PMEDAP-resistant", "cells": "HEL", "read by": "cytopathic effect", "result": "0.0001 µM"}
{"compound": "Brc1ccc(-c2cc3ccccn3c2)cc1", "strain": "G-31", "cells": "MRC-5", "read by": "plaque count", "result": ">40 µM"}
{"compound": "CC(NC(=S)Nc1ccc(NC(=O)c2nccc3ccccc23)cc1)c1cc2ccccc2o1", "strain": "ELLEN", "cells": "HFF", "read by": "ELISA", "result": "0.05 µg/mL"}
{"compound": "Cc1c(Br)cc(Br)c2ncc(CSCc3ccccc3)n12", "strain": "OKA (TK+)", "cells": "HEL", "read by": "plaque count", "result": ">50 µg/mL"}
{"compound": "Cc1cn([C@@H]2O[C@H](CO)[C@@H](O)[C@@H]2O)c(=O)[nH]c1=O", "strain": "OKA", "cells": "CCRF-HSB-2", "read by": "plaque count", "result": "1.43 µM"}
{"compound": "Nc1nc2c(ncn2CCC(CO)CO)c(=O)[nH]1", "strain": "Clinical isolate VZV-24", "cells": "HEL", "read by": "cytopathic effect", "result": "1.67 µM"}
{"compound": "Nc1nc(Cl)c2ncn([C@@H](CCO)OCCO)c2n1", "cells": "HFF", "read by": "cytopathic effect", "result": "90 µM"}
{"compound": "Cc1c(Br)cc(Br)c2ncc(CSCc3ccc(Cl)cc3Cl)n12", "strain": "YS/R (TK-)", "cells": "HEL", "read by": "plaque count", "result": "2.9 µg/mL"}
{"compound": "Nc1nc2c(ncn2COC(CO)CO)c(=O)[nH]1", "strain": "Oka acyclovir-resistant", "cells": "HEL", "read by": "cytopathic effect", "result": "9.9 µM"}
{"compound": "CCc1ccc2cc(-c3ccccc3)cn2c1", "strain": "G-31", "cells": "MRC-5", "read by": "plaque count", "result": "10 µM"}
{"compound": "O=c1[nH]c(=O)n([C@H]2C[C@H](O)[C@@H](CO)O2)cc1I", "strain": "YS-W1 H13", "cells": "HEL", "read by": "plaque count", "result": "0.3 µg/mL"}
{"compound": "CCCCCCCCc1cc2cn([C@H]3C[C@H](O)[C@@H](CO)O3)c(=O)nc2o1", "strain": "OKA", "cells": "HEF", "result": "0.008 µM"}
{"compound": "Cc1c(Br)cc(Br)c2ncc(CSCc3ccc(F)cc3)n12", "strain": "YS/R (TK-)", "cells": "HEL", "read by": "plaque count", "result": "4.8 µg/mL"}
{"compound": "Cc1cn([C@@H]2O[C@H](CO)[C@@H](O)[C@@H]2F)c(=O)[nH]c1=O", "strain": "OKA", "cells": "CCRF-HSB-2", "read by": "plaque count", "result": "0.11 µM"}
{"compound": "Nc1nc2c(ncn2COCCO)c(=O)[nH]1", "strain": "OKA (TK+)", "read by": "plaque count", "result": "0.24 µg/mL"}
{"compound": "Cc1c(Br)cc(Br)c2ncc(CSCCCc3ccccc3)n12", "strain": "YS/R (TK-)", "cells": "HEL", "read by": "plaque count", "result": "3.4 µg/mL"}

A second listing of 6 rows from above:

CCCCCCCCc1cc2cn([C@H]3C[C@H](O)[C@@H](CO)O3)c(=O)nc2o1 ; strain: OKA ; cells: HEF ; result: 0.008 µM
CC(NC(=S)Nc1ccc(NC(=O)c2nccc3ccccc23)cc1)c1cc2ccccc2o1 ; strain: ELLEN ; cells: HFF ; read by: ELISA ; result: 0.05 µg/mL
Nc1nc2c(ncn2[C@H]2C=C[C@@H](CO)CC2)c(=O)[nH]1 ; cells: VERO ; read by: cytopathic effect ; result: 1–10 µM
CC1(C)[C@H](CCO)C[C@@H]1n1cnc2c(=O)[nH]cnc21 ; strain: YS (TK+) ; read by: plaque count ; result: >50 µg/mL
Cc1cn(C(CCO)OCCO)c(=O)[nH]c1=O ; cells: HFF ; read by: cytopathic effect ; result: 127 µM
Nc1nc2c(ncn2[C@@H]2C=C[C@H](CO)CC2)c(=O)[nH]1 ; cells: VERO ; read by: cytopathic effect ; result: 1–10 µM